Pooled drug test results. Numbers come from NIAID ChemDB, via PubChem.

Shared fields: whole-cell or culture tests; species: Mycobacterium tuberculosis

MIC50, MIC90 and the like: level of inhibition, or share of isolates inhibited. MIC bound comes from a single tested concentration. ECn: concentration that inhibits the pathogen or its effect by n%. Inhibition is in % at the dose shown (toxicity tests: loss of growth or viability). Blank or dashed fields: not listed here. Lines come from different laboratories, so protocols vary.

structure,strain,dose,read by,changes,endpoint,value
CO[C@H]1/C=C/O[C@@]2(C)Oc3c(C)c(O)c4c(O)c(c(/C=N/N5C(C)CN(Cc6ccccc6)CC5C)c(O)c4c3C2=O)NC(=O)/C(C)=C\C=C\[C@H](C)[C@H](O)[C@@H](C)[C@@H](O)[C@@H](C)[C@H](OC(C)=O)[C@@H]1C,H37Rv,-,-,-,EC50,0.2 µg/mL
COc1ccc(/C=N/Nc2nnc3c4ccccc4c4ncccc4c3n2)cc1,H37Rv,-,BACTEC,-,MIC bound,>12.5 µg/mL
CCCCCn1c(=O)c2c3c(cnc2n(CCCCC)c1=O)C(=O)C1=C(C3=O)C2CCC1C2,H37Rv,-,luminescence,pSMT1 luciferase reporter plasmid,EC90,4.09 µg/mL
O=[N+]([O-])c1cc(C(F)(F)F)cc2nc(C3=NCCO3)sc12,H37Rv,-,resazurin / absorbance,Overexpressing Rv3790 (DprE1),MIC80,>32 µg/mL
CC1COc2c(N3CCN(C)CC3)c(F)cc3c(=O)c(C(=O)O)cn1c23,H37Rv,-,-,-,MIC,0.5 µg/mL
NC(=O)N1CCN(CCCN2c3ccccc3Sc3cc(Cl)ccc32)CC1,H37Rv,-,BACTEC,-,MIC bound,>12.5 µg/mL
CO[C@H]1/C=C/O[C@@]2(C)Oc3c(C)c(O)c4c(O)c(c(/C=N/N5CCCC5)c(O)c4c3C2=O)NC(=O)/C(C)=C\C=C\[C@H](C)[C@H](O)[C@@H](C)[C@@H](O)[C@@H](C)[C@H](OC(C)=O)[C@@H]1C,H37Rv,-,-,-,EC50,0.1 µg/mL
CCN(CC)c1ccc2nc3c4ccccc4c(=O)cc-3n(-c3ccccc3)c2c1,H37Rv,12.5 µg/mL,BACTEC,-,inhibition,99%
N#Cc1cnc(C(N)=O)c(Nc2cccc(O)c2)n1,H37Rv,-,-,-,MIC,25 µg/mL
O=C(Cc1csc2nc(-c3ccccc3)cn12)N/N=C/c1ccc([N+](=O)[O-])cc1,H37Rv,-,-,-,EC50,<12.5 µg/mL
CC(C)Cn1c(=O)c2c3c(cnc2n(CC(C)C)c1=O)C(=O)C1=C(C3=O)C2CCC1CC2,H37Rv,-,luminescence,pSMT1 luciferase reporter plasmid,EC90,9.31 µg/mL
Cc1ccc(Nc2nc(C#N)cnc2C(N)=O)cc1[N+](=O)[O-],H37Rv,-,-,-,MIC,25 µg/mL
CO[C@H]1/C=C/O[C@@]2(C)Oc3c(C)c(O)c4c(O)c(c(C=Nc5ccc6ccccc6c5)c(O)c4c3C2=O)NC(=O)/C(C)=C\C=C\[C@H](C)[C@H](O)[C@@H](C)[C@@H](O)[C@@H](C)[C@H](OC(C)=O)[C@@H]1C,H37Rv,-,-,-,EC50,>1 µg/mL
O=C(Cc1csc2nc(-c3ccccc3)cn12)N/N=C/c1c(Cl)cccc1Cl,H37Rv,-,-,-,MIC,>12.5 µg/mL
CCCCn1c(=O)c2c3c(cnc2n(CCCC)c1=O)C(=O)C1=C(C3=O)C2CCC1C2,H37Rv,-,luminescence,pSMT1 luciferase reporter plasmid,EC90,4.59 µg/mL
N=C(N)N1N=C(/C=C/c2ccccc2)CC1c1ccccc1,RGH103,-,resazurin,katG S315T isoniazid resistant,MIC,0.72 µM
COC1OC(=O)C(Cl)=C1N=[N+]=[N-],H37Rv,12.5 µg/mL,BACTEC,-,inhibition,-9%
CSc1ccc(-c2nn(-c3ccccc3)cc2C2CC(c3ccccc3)=NN2C(C)=O)cc1,H37Rv,6.25 µg/mL,BACTEC,-,inhibition,35%
COc1ccccc1/C=C/C1=NN(C(=N)N)C(c2ccccc2OC)C1,RGH103,-,resazurin,katG S315T isoniazid resistant,MIC,>4.76 µM
CCn1cc(C(=O)O)c(=O)c2cc(F)c(N3CCNC(C)C3)c(F)c21,H37Rv,-,-,-,MIC,4 µg/mL
CC(C)C1CCC(=O)c2c1ncc1c2C(=O)C2=C(C1=O)C1CCC2C1,H37Rv,-,luminescence,pSMT1 luciferase reporter plasmid,EC99,48.06 µg/mL
CCCCS(=O)(=O)Nc1ccc2[nH]c(C(=O)OCC)c(C)c2c1,DRM167 16x3,-,resazurin,V123A DG167-resistant,MIC90,12.5 µM
COc1ccccc1/C=N/NC(=O)Cc1csc2nc(-c3ccccc3)cn12,H37Rv,-,-,-,EC50,<12.5 µg/mL
Cc1c(-c2ccc(O)cc2)n(CCCCCCNCCOC(=O)NCCCc2ccc(N(CCCl)CCCl)cc2)c2ccc(O)cc12,-,-,BACTEC,-,MIC bound,>6.25 µg/mL
NC(=O)c1cnccn1,H37Rv,-,agar,-,MIC,50 µg/mL
CO[C@H]1/C=C/O[C@@]2(C)Oc3c(C)c(O)c4c(O)c(c(/C=N/Nc5ccc(C(=O)O)cc5)c(O)c4c3C2=O)NC(=O)/C(C)=C\C=C\[C@H](C)[C@H](O)[C@@H](C)[C@@H](O)[C@@H](C)[C@H](OC(C)=O)[C@@H]1C,H37Rv,-,-,-,EC50,>5 µg/mL
CSc1ccc(-c2nn(-c3ccccc3)cc2C2CC(c3ccccc3O)=NN2C(C)=O)cc1,H37Rv,6.25 µg/mL,BACTEC,-,inhibition,0%
CO[C@H]1/C=C/O[C@@]2(C)Oc3c(C)c(O)c4c(O)c(c(/C=N/N5CCN(C)CC5)c(O)c4c3C2=O)NC(=O)/C(C)=C\C=C\[C@H](C)[C@H](O)[C@@H](C)[C@@H](O)[C@@H](C)[C@H](OC(C)=O)[C@@H]1C,H37Rv,-,-,-,EC50,0.5 µg/mL
CCCCS(=O)(=O)Nc1ccc2[nH]c(C(=O)NCc3cccc(C)c3)c(C)c2c1,H37Rv,-,resazurin,-,MIC90,>100 µM
Fc1c(F)c(F)c(Cn2cc(Cn3c4ccccc4c4ccccc43)nn2)c(F)c1F,H37Rv,-,agar,-,MIC,6.25 µg/mL
CC1CCN(C(=S)S)CC1.CC1CCNCC1,EMB-R,-,-,-,MIC,0.8 µg/mL
Fc1ccc(Cn2cc(Cn3c4ccccc4c4ccccc43)nn2)cc1Br,H37Rv,-,agar,-,MIC,6.25 µg/mL
CCCCS(=O)(=O)Nc1ccc2[nH]c(C(=O)NC3CC(F)C3)c(C)c2c1,H37Rv,-,resazurin,-,MIC90,3.1 µM
CSc1ccc(-c2nn(-c3ccccc3)cc2C2CC(c3ccc([N+](=O)[O-])cc3)=NN2C(C)=O)cc1,H37Rv,6.25 µg/mL,BACTEC,-,inhibition,35%
CC(C)[C@@](O)(C(=O)OCC1CCN2CC[C@@H](O)C12)[C@@H](C)O,H37Rv,-,BACTEC,-,MIC bound,>12.5 µg/mL
COc1cccc(Nc2nc(C#N)cnc2C(N)=O)c1,H37Rv,-,-,-,MIC,>100 µg/mL
CCCCS(=O)(=O)Nc1ccc2[nH]c(C(=O)N[C@H](C)c3ccccc3)c(C)c2c1,H37Rv,-,resazurin,-,MIC90,3.1 µM
O=[N+]([O-])c1ccc(-n2cc(Cn3c4ccccc4c4ccccc43)nn2)cc1,H37Rv,-,agar,-,MIC,25 µg/mL
C=C1C(=O)[C@@]23CC[C@H]4C(C)(CCC[C@@]4(C)C(=O)OC)[C@@H]2CC[C@]1(O)C3,H37Rv,-,-,-,MIC,6.3 µg/mL
O=C(N[C@@H](CO)C(=O)N1CCCC1)c1nc2cc(C(F)(F)F)cc([N+](=O)[O-])c2s1,H37Rv,-,resazurin / absorbance,-,MIC80,0.25 µg/mL
CCCCN(CCCC)N=Cc1c2c(O)c3c(O)c(C)c4c(c3c1O)C(=O)[C@@](C)(O/C=C/[C@H](OC)[C@@H](C)[C@@H](OC(C)=O)[C@H](C)[C@H](O)[C@H](C)[C@@H](O)[C@@H](C)/C=C/C=C(/C)C(=O)N2)O4,H37Rv,-,-,-,EC50,0.5 µg/mL
CCOC(=O)CC(NCCCCCCCCCNC(CC(=O)OCC)[C@H]1O[C@@H]2CC(C)(C)C[C@@H]2[C@H]2CC(C)(C)C[C@H]21)[C@H]1O[C@@H]2CC(C)(C)C[C@@H]2[C@H]2CC(C)(C)C[C@H]21,H37Rv,-,-,-,MIC,25 µg/mL
COCCN1CCN(C(=O)c2nc3cc(C(F)(F)F)cc([N+](=O)[O-])c3s2)CC1,H37Rv,-,resazurin / absorbance,-,MBC,0.5 µg/mL
CC1(C)O[C@H]2OC([C@H](CCO)NCCCCCCCCCCCCN[C@@H](CCO)C3O[C@@H]4OC(C)(C)O[C@@H]4[C@H]3OCc3ccccc3)[C@H](OCc3ccccc3)[C@H]2O1,H37Rv,-,-,-,MIC,6.25 µg/mL
COc1c(N2CCNC(C)C2)c(F)cc2c(=O)c(C(=O)O)cn(C3CC3)c12,Z178,-,-,-,MIC,0.5 µg/mL
CSc1ccc(-c2nn(-c3ccccc3)cc2C2CC(c3ccc(N)cc3)=NN2)cc1,H37Rv,6.25 µg/mL,BACTEC,-,inhibition,10%
CC1(C)C[C@H]2[C@@H](C1)[C@@H](C(CCO)NCCCCCCCCNC(CCO)[C@H]1O[C@@H]3CC(C)(C)C[C@@H]3[C@H]3CC(C)(C)C[C@H]31)O[C@@H]1CC(C)(C)C[C@H]21,H37Rv,-,-,-,MIC,6.25 µg/mL
CCCCS(=O)(=O)Nc1ccc2[nH]c(C(=O)NCc3ccc(F)cc3)c(C)c2c1,H37Rv,-,resazurin,-,MIC90,25 µM
CC#CC#C/C=C1\C=CC2(OC=CC2OC(C)=O)O1,EMB-R,-,-,-,MIC,6.3 µg/mL
CO[C@H]1/C=C/O[C@@]2(C)Oc3c(C)c(O)c4c(O)c(c(/C=N/NS(=O)(=O)c5ccc(C)cc5)c(O)c4c3C2=O)NC(=O)/C(C)=C\C=C\[C@H](C)[C@H](O)[C@@H](C)[C@@H](O)[C@@H](C)[C@H](OC(C)=O)[C@@H]1C,H37Rv,-,-,-,EC50,1 µg/mL
N#Cc1cnc(C(N)=O)c(Nc2ccccc2)n1,H37Rv,-,-,-,MIC,12.5 µg/mL
Nc1ccc2c(n1)NCC/C2=N\Nc1ccc(F)cc1,H37Rv,-,BACTEC,-,MIC,≥12.5 µg/mL
Cc1cccc(C)c1Nc1nc(C#N)cnc1C(N)=O,H37Rv,-,-,-,MIC,>100 µg/mL
Cc1ccc(SCC(=O)NCc2cccs2)cc1,H37Rv,-,BACTEC,-,MIC,>12.5 µg/mL
COc1nc2ccc(Br)cc2cc1[C@@H](c1ccccc1)[C@@](O)(CCN(C)C)c1cccc2ccccc12,clinical isolate MAL010084,-,resazurin,-,MIC90,0.03125 µg/mL
Cc1cc2nc3c(=O)n(C)c(=O)nc-3n(-c3ccc(Cl)cc3)c2cc1C,H37Rv,-,BACTEC,-,MIC bound,>12.5 µg/mL
COCCN1CCN(C(=O)c2nc3cc(C(F)(F)F)c(C)c([N+](=O)[O-])c3s2)CC1,H37Rv,-,resazurin / absorbance,-,MIC80,0.5 µg/mL
Cc1ncc(C(N)=S)c(N)n1,H37Rv,-,resazurin,-,MIC bound,>6.25 µg/mL
COc1ccc(/C=C/C2=NN(C(=N)N)C(c3ccc(OC)cc3)C2)cc1,H37Rv,-,resazurin,-,MIC,0.89 µM
COc1cc2c(-c3c4c5c(cc(OC)c(OC)c5c5cc(OC)c(OC)cc35)CCN4C)c3c4c(cc(OC)c(OC)c4c2cc1OC)CCN3C,H37Rv,-,BACTEC,-,MIC bound,>12.5 µg/mL
COc1cc(/C=C/C=O)cc2c1OC(C)(C)[C@H](O)C2,H37Rv,-,-,-,MIC,55.6 µg/mL
Cc1c(CC[n+]2cccc(C(N)=O)c2)[nH]c(=O)[nH]c1=O.[Cl-],H37Rv,-,BACTEC,-,MIC,≥12.5 µg/mL
O=C([C@@H]1COC(c2nc3cc(C(F)(F)F)cc([N+](=O)[O-])c3s2)=N1)N1CCCC1,H37Rv,-,resazurin / absorbance,-,MIC80,1 µg/mL
CSc1ccc(C(N)=O)c[n+]1C.[I-],H37Rv,-,BACTEC,-,MIC bound,>12.5 µg/mL
CC/C(C)=C(/NC(=O)[C@H](C)NC(=O)[C@@H]1CCC=NN1C(=O)[C@@H](NC(=O)[C@H](C)NC(=O)C(N)(CO)CO)[C@H](C)N)C(=O)N[C@@H](CO)C(=O)O,Rifampicin-resistant,-,-,-,MIC,3.1 µg/mL
CC1=NC(C)=C(/C(C)=N/NC(=O)c2ccccc2O)C(C)/C1=C(\C)NNC(=O)c1ccccc1O,H37Rv,-,BACTEC,-,MIC,≥12.5 µg/mL
C=COCc1ccc2c(c1)C[C@@H](C(C)(C)O)O2,H37Rv,-,-,-,MIC,45.8 µg/mL
CCCCCCSC1=C(SCCCCCC)C(=O)c2[nH]cnc2C1=O,H37Rv,-,BACTEC,-,MIC bound,>12.5 µg/mL
CC1(C)C[C@H]2[C@@H](C1)[C@@H](C(CCO)NCCCCCCCCCCNC(CCO)[C@H]1O[C@@H]3CC(C)(C)C[C@@H]3[C@H]3CC(C)(C)C[C@H]31)O[C@@H]1CC(C)(C)C[C@H]21,H37Rv,-,-,-,MIC,6.25 µg/mL
C[S+](C)C1=C(O)OC(C)(C)OC1=O,H37Rv,12.5 µg/mL,BACTEC,-,inhibition,2%
CO[C@H]1/C=C/O[C@@]2(C)Oc3c(C)c(O)c4c(O)c(c(C=Nc5ccc(C)cc5)c(O)c4c3C2=O)NC(=O)/C(C)=C\C=C\[C@H](C)[C@H](O)[C@@H](C)[C@@H](O)[C@@H](C)[C@H](OC(C)=O)[C@@H]1C,H37Rv,-,-,-,EC50,>5 µg/mL

8 of the rows above, restated:

structure,strain,dose,read by,changes,endpoint,value
O=C(N[C@@H](CO)C(=O)N1CCCC1)c1nc2cc(C(F)(F)F)cc([N+](=O)[O-])c2s1,H37Rv,-,resazurin / absorbance,-,MIC80,0.25 µg/mL
CCCCCn1c(=O)c2c3c(cnc2n(CCCCC)c1=O)C(=O)C1=C(C3=O)C2CCC1C2,H37Rv,-,luminescence,pSMT1 luciferase reporter plasmid,EC90,4.09 µg/mL
Fc1ccc(Cn2cc(Cn3c4ccccc4c4ccccc43)nn2)cc1Br,H37Rv,-,agar,-,MIC,6.25 µg/mL
COc1cccc(Nc2nc(C#N)cnc2C(N)=O)c1,H37Rv,-,-,-,MIC,>100 µg/mL
N#Cc1cnc(C(N)=O)c(Nc2ccccc2)n1,H37Rv,-,-,-,MIC,12.5 µg/mL
CCCCS(=O)(=O)Nc1ccc2[nH]c(C(=O)NCc3cccc(C)c3)c(C)c2c1,H37Rv,-,resazurin,-,MIC90,>100 µM
CSc1ccc(-c2nn(-c3ccccc3)cc2C2CC(c3ccc(N)cc3)=NN2)cc1,H37Rv,6.25 µg/mL,BACTEC,-,inhibition,10%
CSc1ccc(-c2nn(-c3ccccc3)cc2C2CC(c3ccccc3O)=NN2C(C)=O)cc1,H37Rv,6.25 µg/mL,BACTEC,-,inhibition,0%